Human monoclonal antibodies against the spike receptor-binding domain (heavy:light variable regions). IC50 against pseudoviruses bearing the spike of naturally observed variants; lower = stronger; >10 µg/ml means not reached at the top dose. No active / inactive call. The stated detection limit is 0.0005 µg/ml; values near or below 0.001 µg/ml lie at the floor of the assay.
B1: BD55-5309 (protein)
chain 1: QVRLIQSGAEVKKPGSSVTISCKASGGSFSSYSISWVRQAPGQGLEWVGGFVPLFHKADYAQTFQGRVTITADESTTTTSMELTSLRVEDTAVYYCARGEYFGYDYLGFYYGLDVWGQGTTIAVSS
chain 2: QIVVTQEPSLTVSPGETVTLTCGSSAGAVTSGHYPYWFQKKPGQAPRTLIYNTNKKHSWTPARFSGSLIAGKAALTLSGALPDDEADYYCLVATVFGGGTKLTVL
B2: BD55-5286 (protein)
chain 1: QVQLVQSGSELKRPGASVRVSCETSGYTFTDYAINWVRQAPGQGLEWMGWINTYSGHPTYAQAFTGRFVFSVDMSGSTAYLQISSLKPADTAVYYCARDLQVPEGLDYWGQGTLVTVSS
chain 2: DIVMTQSPATLSLSPGETATLSCRASYSFTSRLAWYQQKFGQAPRLLIHDASTRAPGVPARFSGSGSGTEFTLAISSLQSEDSAVYYCQQYHSWPLTFGQGTKVEI
B3: BD55-5325 (protein)
chain 1: QITLKESGPTLVKPTQTLTLTCTFSGFSLSNTEVGVGWIRQPPGKALEWLALIYWDDDKRYSPSLKSRLTIAKDTSKNQVVLTMTNVDPVDTATYFCAHSHYDFLTGFSGFDYWGPGTVVTVSS
chain 2: DIVMTQTPLSSPVTLGQPASISCTSSQSLVHSDGNTYLNWLQQRPGQPPRLLIYQISKRFSGVPDRFTGSGAGTDFTLNISRVEAEDVGVYSCMQATQFPHEMYTFGQGTKLEIK
B4: BD55-5304 (protein)
chain 1: EVQLVESGGGLVQPGRSLRLSCAASGFNFDDYAMHWVRQRPGKGLEWVSSISWNRGTIGYADSVKGRFTISRDNAKDSLFLQMNSLRPEDTAVYYCAKDIDQQWELFGGHFDSWGPGTLVTVSS
chain 2: QSVLTQPPSVSGAPGQRVTISCTGSSSNIGAGYGVHWYQQLPGTAPKLLIYSSTNRPSGVPDRFSGSKSGTSASLAITGLQAEDEADYYCQSYDSSLSGSEVFGGGTKLTVL
B5: BD55-5301 (protein)
chain 1: EVQLVESGGGVVQPGGSLRLSCAASGFTFYDYAMNWVRQAPGKGLEWVSLISWNGGITYYADSVKGRFTISRDNSKNSLYLQMNSLKPEDTALYYCAKDIFRDHDLLTHDNFDYWGQGTLVTVAS
chain 2: QSVLTQPPSASGTPGQRVTISCSGSSSNIGINIVSWYQQLPGAAPKLLIYSNNQRPSGVPDRFSGSKSGTSASLAISGLQSEDEADYHCVAWDDTLNGPVFGGGTKLTVL
B6: BD55-5324 (protein)
chain 1: QVQLVQSGSELKKPGASVKVSCKTSGYTFTTYAIKWVRQAPGQGLEWMGWINTNTGHPTYAQGFTGRFVFSSDTSVTTAYLQINSLKAEDTAIYYCAKVFCSGGTCYDVDYWGQGTLITVSS
chain 2: QSVLTQPPSASGTPGQSVTISCSGSISNIGSNFVYWYQKFPGTAPKLLIYRNNHRPSGLPDRFSGSKSGTSASLAISGLRSEDEADYYCAAWDDSLSGRLFGGGTKLTVL
B7: BD55-5268 (protein)
chain 1: QVQLQQRGAGLLRPSETLSLTCDVSGGSFSGYYWNWVRQPPGKGLEWIGDIDLAGDNYNPSLKSRVTMSIDASKNQFSLRLSSVTAADTAVYFCVRAPNLGWFGPKQGAFDLWGQGTVVIVSS
chain 2: not shown

The binders below were run against SARS-CoV-2 Omicron BA.1 spike pseudovirus (assay: pseudovirus neutralization IC50; higher = weaker neutralization).
Experimental: (§1)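 Single-round VSV luciferase pseudovirus mixed with antibody dilutions for 1 h and put on Huh-7 cells for about a day; IC50 from the dose curve.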

Binder	pseudovirus neutralization IC50 [µg/mL]
B1	> 10
B2	0.0928
B3	> 10
B4	0.155
B5	> 10
B6	> 10
B7	> 10

Each binder was assayed against SARS-CoV-2 Omicron BA.2 spike pseudovirus in the same assay as above.
Experimental: as §1

Binder	pseudovirus neutralization IC50 [µg/mL]
B1	> 10
B2	0.0573
B3	> 10
B4	> 10
B5	> 10
B6	> 10
B7	> 10

The binders below were run against SARS-CoV-2 Omicron BA.2.75 spike pseudovirus in the same assay as above.
Experimental: as §1

Binder	pseudovirus neutralization IC50 [µg/mL]
B1	> 10
B2	1.39
B3	> 10
B4	> 10
B5	> 10
B6	> 10
B7	> 10

The binders below were run against SARS-CoV-2 Omicron BA.5 spike pseudovirus in the same assay as above.
Experimental: as §1

Binder	pseudovirus neutralization IC50 [µg/mL]
B1	> 10
B2	0.108
B3	> 10
B4	> 10
B5	> 10
B6	> 10
B7	> 10

What follows are binders tested against SARS-CoV-2 Omicron BQ.1.1 spike pseudovirus in the same assay as above.
Experimental: as §1

Binder	pseudovirus neutralization IC50 [µg/mL]
B1	> 10
B2	> 10
B3	> 10
B4	> 10
B5	> 10
B6	> 10
B7	> 10

These binders were tested against SARS-CoV-2 Omicron XBB spike pseudovirus in the same assay as above.
Experimental: as §1

Binder	pseudovirus neutralization IC50 [µg/mL]
B1	> 10
B2	> 10
B3	> 10
B4	> 10
B5	> 10
B6	> 10
B7	> 10

The binders below were run against SARS-CoV-2 early D614G spike pseudovirus in the same assay as above.
Experimental: as §1

Binder	pseudovirus neutralization IC50 [µg/mL]
B1	0.384
B2	0.00115
B3	0.894
B4	0.0181
B5	0.0376
B6	0.0503
B7	0.73
